In patent publication US11053196B2, “Substituted indoline derivatives as dengue viral replication inhibitors” (JANSSEN PHARMACEUTICALS, INC., priority 2017, dated 2021):

Test system: DENV-2 16681 strain
Experiment: DENV-2 antiviral assay (eGFP-labeled virus in Vero cells)
Format: cell-based, Dengue virus
Conditions: SI=CC50/EC50, DENV-2 antiviral assay
Experimental: The antiviral activity of all the compounds of the invention was tested against the DENV-2 16681 strain which was labeled with enhanced green fluorescent protein (eGPF). The culture medium consists of minimal essential medium supplemented with 2% of heat-inactivated fetal calf serum, 0.04% gentamycin (50 mg/mL) and 2 mM of L-glutamine. Vero cells, obtained from ECACC, were suspended in culture medium and 25 μL was added to 384-well plates (2500 cells/well), which already contain the antiviral compounds. Typically, these plates contain a 5-fold serial dilution of 9 dilution steps of the test compound at 200 times the final concentration in 100% DMSO (200 nL). […] Finally, each plate contains wells which are assigned as virus controls (containing cells and virus in the absence of compound), cell controls (containing cells in the absence of virus and compound) and medium controls (containing medium in the absence of cells, virus and compounds). To the wells assigned as medium control, 25 μL of culture medium was added instead of Vero cells. Once the cells are added to the plates, the plates were incubated for 30 minutes at room temperature to allow the cells to distribute evenly within the wells. Next, the plates were incubated in a fully humidified incubator (37° C., 5% CO2) until the next day. Then, DENV-2 strain 16681, labeled with eGFP, was added at a multiplicity of infection (MOI) of 0.5.
Therefore, 15 μL of virus suspension was added to all the wells containing test compound and to the wells assigned as virus control. In parallel, 15 μL of culture medium was added to the medium and cell controls. Next, the plates were incubated for 3 days in a fully humidified incubator (37° C., 5% CO2). At the day of the read out, the eGFP fluorescence was measured using an automated fluorescence microscope at 488 nm (blue laser). Using an in-house LIMS system, inhibition dose response curves for each compound were calculated and the half maximal effective concentration (EC50) was determined. Therefore, the percent inhibition (I) for every test concentration is calculated using the following formula: I=100*(ST−SCC)/(SVC−SCC); ST, SCC and SVC are the amount of eGFP signal in the test compound, cell control and virus control wells, respectively. The EC50 represents the concentration of a compound at which the virus replication is inhibited with 50%, as measured by a 50% reduction of the eGFP fluorescent intensity compared to the virus control. The EC50 is calculated using linear interpolation (Table 1).

COc1cc(NC(C(=O)N2CCc3ccc(S(F)(F)(F)(F)F)cc32)c2ccc(Cl)cc2)cc(OCCCC(=O)O)c1 (racemic) [Compound 1, 4-(3-((1-(4-chlorophenyl)-2-oxo-2-(6-(pentafluoro-λ^6-sulfanyl)indolin-1-yl)ethyl)amino)-5-methoxyphenoxy)butanoic acid]
SI: 19800

COc1cc(NC(C(=O)N2CCc3c(C)cc(C(F)(F)F)cc32)c2ccc(Cl)cc2)cc(OCCCC(=O)O)c1 (racemic) [Compound 2, 4-(3-((1-(4-chlorophenyl)-2-(4-methyl-6-(trifluoromethyl)indolin-1-yl)-2-oxoethyl)amino)-5-methoxyphenoxy)butanoic acid]
SI: 32100

COc1cc(NC(C(=O)N2CCc3cc(F)c(C(F)(F)F)cc32)c2ccc(Cl)cc2)cc(OCCCC(=O)O)c1 (racemic) [Compound 3, 4-(3-((1-(4-chlorophenyl)-2-(5-fluoro-6-(trifluoromethyl)indolin-1-yl)-2-oxoethyl)amino)-5-methoxyphenoxy)butanoic acid]
SI: 22700

COc1cc(NC(C(=O)N2CCc3c(C)cc(OC(F)(F)F)cc32)c2ccc(Cl)cc2)cc(OCCCC(=O)O)c1 (racemic) [Compound 4, 4-(3-((1-(4-chlorophenyl)-2-(4-methyl-6-(trifluoromethoxy)indolin-1-yl)-2-oxoethyl)amino)-5-methoxyphenoxy)butanoic acid]
SI: 96000

COc1cc(NC(C(=O)N2CCc3cc(F)c(OC(F)(F)F)cc32)c2ccc(Cl)cc2)cc(OCCCC(=O)O)c1 (racemic) [Compound 5, 4-(3-((1-(4-chlorophenyl)-2-(5-fluoro-6-(trifluoromethoxy)indolin-1-yl)-2-oxoethyl)amino)-5-methoxyphenoxy)butanoic acid]
SI: 90900

COc1cc(NC(C(=O)N2CCc3ccc(OC(F)(F)F)cc32)c2ccc(F)cc2OC)cc(OCCCC(=O)O)c1 (racemic) [Compound 6, 4-(3-((1-(4-fluoro-2-methoxyphenyl)-2-oxo-2-(6-(trifluoromethoxy)indolin-1-yl)ethyl)amino)-5-methoxyphenoxy)butanoic acid]
SI: 19500

COc1cc(NC(C(=O)N2CCc3ccc(OC(F)(F)F)cc32)c2ccc(Cl)cc2OCCO)cc(OCCCC(=O)O)c1 (racemic) [Compound 8, 4-(3-((1-(4-chloro-2-(2-hydroxyethoxy)phenyl)-2-oxo-2-(6-(trifluoromethoxy)indolin-1-yl)ethyl)amino)-5-methoxyphenoxy)butanoic acid]
SI: 86800

COc1cc(NC(C(=O)N2CCc3nc(OC)c(C(F)(F)F)cc32)c2ccc(Cl)cc2)cc(OCCCC(=O)O)c1 (racemic) [Compound 9, 4-(3-((1-(4-chlorophenyl)-2-(5-methoxy-6-(trifluoromethyl)-2,3-dihydro-1H-pyrrolo[3,2-b]pyridin-1-yl)-2-oxoethyl)amino)-5-methoxyphenoxy)butanoic acid]
SI: 12600

COc1cc(NC(C(=O)N2CCc3sc(C(F)(F)F)cc32)c2ccc(Cl)cc2)cc(OCCCC(=O)O)c1 (racemic) [Compound 10, 4-(3-((1-(4-chlorophenyl)-2-oxo-2-(2-(trifluoromethyl)-5,6-dihydro-4H-thieno[3,2-b]pyrrol-4-yl)ethyl)amino)-5-methoxyphenoxy)butanoic acid]
SI: 40900

COc1cc(NC(C(=O)N2CCc3ccc(SC(F)(F)F)cc32)c2ccc(Cl)cc2)cc(OCCCC(=O)O)c1 (racemic) [Compound 11, 4-(3-((1-(4-chlorophenyl)-2-oxo-2-(6-((trifluoromethyl)thio)indolin-1-yl)ethyl)amino)-5-methoxyphenoxy)butanoic acid]
SI: 43300

COc1cc(NC(C(=O)N2CCc3ccc(OC(F)(F)F)cc32)c2ccc(Cl)cc2)cc(OCCCC(=O)O)c1 (single isomer, unassigned) [Compound 7A-D, 4-(3-((1-(4-chlorophenyl)-1-deuterio-2-oxo-2-(6-(trifluoromethoxy)indolin-1-yl)ethyl)amino)-5-methoxyphenoxy)butanoic acid]
SI: 118813

COc1cc(NC(C(=O)N2CCc3ccc(OC(F)(F)F)cc32)c2ccc(Cl)cc2)cc(OCCCC(=O)O)c1 (single isomer, unassigned) [Compound 7B-D, 4-(3-((1-(4-chlorophenyl)-1-deuterio-2-oxo-2-(6-(trifluoromethoxy)indolin-1-yl)ethyl)amino)-5-methoxyphenoxy)butanoic acid]
SI: 584
